Assay results: patent US8603769B2, “Method for direct and rapid identification of microorganisms and antimicrobial susceptibility testing from positive blood cultures” (Becton, Dickinson and Company, priority 2011, dated 2013)

Key:
[1] = tested on: Staphylococcus and Enterococcus test strains; experiment: AST testing on BD Phoenix ID/AST panel: MIC of Test Method (pellet from PBC) vs Control (plated pure culture), essential agreement; assay type: cell-based; details: 12 strains
Streptococcus strains = experiment: AST testing on BD Phoenix ID/AST panel: MIC of Test Method vs Control, essential agreement; assay type: cell-based
[2] = samples prepared with lysis buffer #1
[3] = samples prepared with lysis buffer #2
[4] = samples prepared with lysis buffer #1, 7 strains
[5] = samples prepared with lysis buffer #2, 8 strains

| Compound | % EA [1, 2] [%] | EA (strains with MIC dilution difference -1 to +1 vs Control) [1, 2] | % EA [1, 3] [%] | EA (strains with MIC dilution difference -1 to +1 vs Control) [1, 3] | % EA (Streptococcus strains; [4]) [%] | EA (strains with MIC dilution difference -1 to +1 vs Control) (Streptococcus strains; [4]) | % EA (Streptococcus strains; [5]) [%] | EA (strains with MIC dilution difference -1 to +1 vs Control) (Streptococcus strains; [5]) |
| --- | --- | --- | --- | --- | --- | --- | --- | --- |
| CC1(C)S[C@@H]2[C@H](NC(=O)[C@H](N)c3ccccc3)C(=O)N2[C@H]1C(=O)O [AM, Ampicilin] | 91.7 | 11 | 83.3 | 10 |  |  |  |  |
| CC1(C)S[C@@H]2[C@H](NC(=O)[C@H](N)c3ccc(O)cc3)C(=O)N2[C@H]1C(=O)O [AMX, Amoxicillin] |  |  |  |  | 100.0 | 7 | 100.0 | 8 |
| O=C(N[C@H](CO)[C@H](O)c1ccc([N+](=O)[O-])cc1)C(Cl)Cl [C, Chloramphenicol] |  |  |  |  | 100.0 | 7 | 100.0 | 8 |
| CO/N=C(\C(=O)N[C@@H]1C(=O)N2C(C(=O)O)=C(COC(C)=O)CS[C@H]12)c1csc(N)n1 [CTX, Cefotaxime] |  |  |  |  | 100.0 | 7 | 100.0 | 8 |
| CCCCCCCCCC(=O)N[C@@H](Cc1c[nH]c2ccccc12)C(=O)N[C@H](CC(N)=O)C(=O)N[C@@H](CC(=O)O)C(=O)N[C@@H]1C(=O)NCC(=O)N[C@@H](CCCN)C(=O)N[C@@H](CC(=O)O)C(=O)N[C@H](C)C(=O)N[C@@H](CC(=O)O)C(=O)NCC(=O)N[C@H](CO)C(=O)N[C@@H]([C@H](C)CC(=O)O)C(=O)N[C@@H](CC(=O)c2ccccc2N)C(=O)O[C@@H]1C [DAP, Daptomycin] | 100.0 | 12 | 100.0 | 12 |  |  |  |  |
| CC[C@H]1OC(=O)[C@H](C)[C@@H](O[C@H]2C[C@@](C)(OC)[C@@H](O)[C@H](C)O2)[C@H](C)[C@@H](O[C@@H]2O[C@H](C)C[C@H](N(C)C)[C@H]2O)[C@](C)(O)C[C@@H](C)C(=O)[C@H](C)[C@@H](O)[C@]1(C)O [E, Erythromycin] | 75.0 | 9 | 83.3 | 10 | 100.0 | 7 | 100.0 | 8 |
| CO/N=C(\C(=O)N[C@@H]1C(=O)N2C(C(=O)[O-])=C(C[N+]3(C)CCCC3)CS[C@H]12)c1csc(N)n1 [FEP, Cefepime] |  |  |  |  | 100.0 | 7 | 100.0 | 8 |
| CO[C@@]1(NC(=O)Cc2cccs2)C(=O)N2C(C(=O)O)=C(COC(N)=O)CS[C@@H]21 [FOX, Cefoxitin] | 100.0 | 12 | 100.0 | 12 |  |  |  |  |
| CC(=O)NC[C@H]1CN(c2ccc(N3CCOCC3)c(F)c2)C(=O)O1 [LZD, Linezolid] | 100.0 | 12 | 100.0 | 12 | 100.0 | 7 | 100.0 | 8 |
| C[C@@H](O)[C@H]1C(=O)N2C(C(=O)O)=C(S[C@@H]3CN[C@H](C(=O)N(C)C)C3)[C@H](C)[C@H]12 [MEM, Meropenem] |  |  |  |  | 100.0 | 7 | 100.0 | 8 |
| Cc1onc(-c2ccccc2)c1C(=O)N[C@@H]1C(=O)N2[C@@H]1SC(C)(C)[C@@H]2C(=O)O [OX, Oxacillin] | 83.3 | 10 | 83.3 | 10 |  |  |  |  |
| CO[C@H]1/C=C/O[C@@]2(C)Oc3c(C)c(O)c4c(O)c(c(/C=N/N5CCN(C)CC5)c(O)c4c3C2=O)NC(=O)/C(C)=C\C=C\[C@H](C)[C@H](O)[C@@H](C)[C@@H](O)[C@@H](C)[C@H](OC(C)=O)[C@@H]1C [RA, Rifampin] | 100.0 | 12 | 100.0 | 12 |  |  |  |  |
| CN[C@@H]1[C@H](O[C@H]2[C@H](O[C@H]3[C@H](O)[C@@H](O)[C@H](N=C(N)N)[C@@H](O)[C@@H]3N=C(N)N)O[C@@H](C)[C@]2(O)C=O)O[C@@H](CO)[C@H](O)[C@H]1O [STS, High-level streptomycin] | 100.0 | 12 | 100.0 | 12 |  |  |  |  |
| CC[C@H]1OC(=O)[C@H](C)C(=O)[C@H](C)[C@@H](O[C@@H]2O[C@H](C)C[C@H](N(C)C)[C@H]2O)[C@](C)(OC)C[C@@H](C)C(=O)[C@H](C)[C@H]2N(CCCCn3cnc(-c4cccnc4)c3)C(=O)O[C@]12C [TEL, Telithromycin] |  |  |  |  | 100.0 | 7 | 100.0 | 8 |
| CN[C@H](CC(C)C)C(=O)N[C@H]1C(=O)N[C@@H](CC(N)=O)C(=O)N[C@H]2C(=O)N[C@H]3C(=O)N[C@H](C(=O)N[C@H](C(=O)O)c4cc(O)cc(O)c4-c4cc3ccc4O)[C@H](O)c3ccc(c(Cl)c3)Oc3cc2cc(c3O[C@@H]2O[C@H](CO)[C@@H](O)[C@H](O)[C@H]2O[C@H]2C[C@](C)(N)[C@H](O)[C@H](C)O2)Oc2ccc(cc2Cl)[C@H]1O [VA, Vancomycin] | 75.0 | 9 | 75.0 | 9 | 100.0 | 7 | 100.0 | 8 |
| Bactrim [SXT] | 100.0 | 12 | 91.7 | 11 | 100.0 | 7 | 100.0 | 8 |
| Gentamicin [GM] | 91.7 | 11 | 91.7 | 11 |  |  |  |  |
| High-level Gentamicin [GMS] |  | 12 |  | 12 |  |  |  |  |
| Penicillin | 100.0 | 12 | 91.7 | 11 | 71.4 | 5 | 75.0 | 6 |
| Synercid | 100.0 | 12 | 91.7 | 11 | 100.0 | 7 | 100.0 | 8 |
| Teicoplanin [TEC] |  |  |  |  | 100.0 | 7 | 100.0 | 8 |
